{"source": "ChEMBL document CHEMBL5247624", "about": "“N-sulfonylpiperidinedispiro-1,2,4,5-tetraoxanes exhibit potent in vitro antiplasmodial activity and in vivo efficacy in mice infected with P. berghei ANKA” (Eur J Med Chem, 2022)", "system": "Plasmodium falciparum", "assay": "Antiplasmodial activity against erythrocytic stage of chloroquine-sensitive Plasmodium falciparum 3D7 assessed as inhibition of parasite growth incubated for 3 days by HRP2-ELISA assay", "data": [{"smiles": "C1CCC2(C1)OOC1(CCCC1)OO2", "values": [{"measurement": "IC50", "result": 0.0543, "unit": "µM"}]}]}
